Test results as given in ChEMBL document CHEMBL1629474, “Massive screening yields novel and selective Trypanosoma cruzi triosephosphate isomerase dimer-interface-irreversible inhibitors with anti-trypanosomal activity” (Eur J Med Chem, 2010).

Protein sequences, listed by entry. Tags and fused reporters are not part of them. Lines headed by an entry give the natural chain unless they say otherwise; changes in a name come on top.
UniProt P52270: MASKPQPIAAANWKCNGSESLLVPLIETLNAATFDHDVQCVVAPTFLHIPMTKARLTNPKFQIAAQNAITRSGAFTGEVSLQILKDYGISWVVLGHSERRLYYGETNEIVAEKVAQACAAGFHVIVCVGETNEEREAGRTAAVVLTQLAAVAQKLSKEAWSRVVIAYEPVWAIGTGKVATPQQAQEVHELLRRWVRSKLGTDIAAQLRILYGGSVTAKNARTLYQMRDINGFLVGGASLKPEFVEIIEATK

Assays:
[1] = Selectivity for Trypanosoma cruzi triosephosphate isomerase over human triosephosphate isomerase
[2] = system: Trypanosoma cruzi; assay: Antiparasitic activity against Trypanosoma cruzi T2 epimastigotes assessed as growth inhibition at 25 uM after 5 days; type: functional
In short: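 Late-log epimastigotes were grown axenically at 28 °C in BHI-tryptose with 5% fetal calf serum and seeded at 2×10^6/mL in medium containing compound (DMSO stock; final DMSO ≤1%, 1% DMSO control). Growth was read as A590 at day 0 and day 5. Inhibition = {1 − [(Ap − A0p)/(Ac − A0c)]} × 100. Means of two experiments.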

[3] = target: Triosephosphate isomerase, glycosomal (Trypanosoma cruzi) (UniProt P52270); assay: Inhibition of Trypanosoma cruzi triosephosphate isomerase at 400 uM after 2 hrs
In short: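 Recombinant E. coli-expressed enzyme, dialyzed into 100 mM triethanolamine/10 mM EDTA pH 7.4, was incubated with compound (DMSO stock) in 100 mM triethanolamine, 10 mM EDTA, pH 7.4, 10% DMSO at 36 °C for 2 h. An aliquot was then assayed for activity (glyceraldehyde 3-phosphate to dihydroxyacetone phosphate, α-glycerol phosphate dehydrogenase-coupled) with 5 ng enzyme. Irreversible inhibition was scored as loss of activity; means of two experiments.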

| Structure (SMILES) | Ratio [1] | Activity [2] | inhibition [3] [%] |
| --- | --- | --- | --- |
| O=[N+]([O-])c1ccc2no[n+]([O-])c2c1 | > 4 | Active | 29 |
| O=[N+]([O-])c1cccc2no[n+]([O-])c12 | > 4 | Active | 33 |
| O=[N+]([O-])c1no[n+]([O-])c1-c1ccccc1 | > 4 | Active | 71 |
| ClCCNCc1ccc2c(c1)OCO2 | > 4 | Active | 23 |

The source made the active and inactive calls. How the calls were made is not given here.
